Test results as given in US11246922B1, “Vaccine RNA-peptide against SARS-CoV-2 with endogenous exosomes as carrier” (Elidan America, LLC., priority 2021, dated 2022).
≈ marks a conversion by molar mass, not a printed value.

Key:
in vitro [1] = details: human
in vitro [2] = details: human; remark: listed apart in the source

Question: Which CC50 (HEK293 cell line) does the source give for Phosphate-buffered saline [PBS] here?
Answer: The CC50 was 356 µg/mL.

Question: And the CC50 (HMEC-1 cell line)?
Answer: The CC50 was 451 µg/mL.

Question: What about the CC50 (WM-266 cell line) of the same compound?
Answer: The CC50 was 456 µg/mL.

Question: And the CC50 (HUVEC cell line)?
Answer: Its CC50 is 468 µg/mL.

Question: And the CC50 (BEAS-2B cell line)?
Answer: Its CC50 is 490 µg/mL.

Question: With `CC(C)[C@H](NC(=O)CN)C(=O)N[C@@H](CC(=O)O)C(=O)N[C@@H](CCC(=O)O)C(=O)N[C@H](C(=O)N[C@@H](C)C(=O)N[C@@H](CCCCN)C(=O)N[C@@H](CCCCN)C(=O)N[C@@H](CCCCN)C(=O)N[C@@H](CO)C(=O)N[C@@H](CCCCN)C(=O)O)C(C)C` [Peptide-B] as the compound, how does the CC50 (in vitro [1]) read?
Answer: Its CC50 is 135 µg/mL (≈ 114 µM).

Question: Which CC50 (in vitro [2]) does the source give for `OO` [H2O2, Hydrogen peroxide solution, reference compound] here?
Answer: The CC50 was 131 µg/mL (≈ 3850 µM).
